Anti-infective test results gathered from many reports (values: NIAID ChemDB through PubChem).

Shared fields: whole-cell or culture tests; agent: Herpes simplex virus 2; method: plaque count; measure: EC50

Conditions beyond the fields shown may differ between rows. Blank or dashed fields: not listed here. ECn is the concentration giving n% inhibition of infection, replication or growth.

SMILES	strain or isolate	cell line	result
CC#Cc1cn([C@@H]2O[C@H](COP(=O)(O)OCC)[C@@H](O)[C@@H]2O)c(=O)[nH]c1=O	SC16	VERO	>100 µM
CCCC[CH2][Sn]([Cl])([Cl])[CH2]CCCC	MS	HFF	<1 µg/mL
O=C(O)P(=O)(O)O	V12500	SIRC	<500 µM
CCCn1cc(C(N)=O)c(=O)c2ccc(-c3ccncc3)cc21	-	VERO	>6.25 µg/mL
CC1=C(/C=C/C(C)=C/C=C/C(C)=C/CO)C(C)(C)CCC1	-	-	10 µM
NC(=O)c1cn(-c2ccc(F)cc2)c2cc(-c3cc[n+]([O-])cc3)ccc2c1=O	-	VERO	>12.5 µg/mL
COc1c2c(cc3ccoc13)C(=O)[C@H]1c3cc4c(cc3OC[C@H]1O2)OCO4	186	VERO	>50 µg/mL
Cc1cccc2c1OP(=O)(OC[C@H]1O[C@@H](n3cc(/C=C/Br)c(=O)[nH]c3=O)C[C@@H]1OC(=O)[C@@H](N)CC(C)C)OC2	G (TK+)	VERO	>128 µg/mL
CCn1cc(C(N)=O)c(=O)c2ccc(-c3cnc(C)s3)cc21	-	VERO	>100 µg/mL
CCCCCc1c(OC)cc(O)c2c(=O)c3ccccc3n(C)c12	-	HEF	>20 µg/mL
C[C@H]1O[C@@H](O[C@H]2CC[C@@]3(C)[C@H](CC[C@@H]4[C@@H]3CC[C@]3(C)[C@@H](C5=CC(=O)OC5)C(O)C[C@]43O)C2)C[C@H](O)[C@@H]1O[C@@H]1O[C@H](CO)[C@@H](O)[C@H](O)[C@H]1O	333	GMK AH1	0.45 µM
O=c1[nH]c(=O)n([C@@H]2O[C@H](CO)[C@@H](O)[C@@H]2O)cc1I	-	HEL	31 µM
CCn1cc(C(N)=O)c(=O)c2ccc(F)cc21	-	VERO	>50 µg/mL
CC[C@H](C)[C@H](N)C(=O)O[C@H]1C[C@H](n2cc(/C=C/Br)c(=O)[nH]c2=O)O[C@@H]1COP1(=O)OCc2cccc(C)c2O1	G (TK+)	VERO	>128 µg/mL
CCn1cc(C(=O)N(C)O)c(=O)c2ccc(-c3ccncc3)cc21	-	VERO	>50 µg/mL
CC1=C(/C=C/C(C)=C/C=C/C(C)=C/C=O)C(C)(C)CCC1	-	-	0.45 µM
O=c1[nH]c(=O)n([C@@H]2O[C@H](CO)[C@@H](O)[C@@H]2F)cc1/C=C/Br	-	HEL	24 µM
CCCOC(=O)c1cc(O)c(O)c(O)c1	G	HEL	9.1 µg/mL
C[C@]12CC[C@H](O)C[C@H]1CC[C@@H]1[C@@H]2C[C@@H](O)[C@]2(C)[C@@H](C3=CC(=O)OC3)CC[C@]12O	333	GMK AH1	1.22 µM
Cc1cn([C@@H]2O[C@H](CO)C[C@@H]2O)c(=O)[nH]c1=O	-	HEL	>1322 µM
CC1=C(C/C=C(\C)CCCC(C)CCCC(C)CCCC(C)C)C(=O)c2ccccc2C1=O	-	-	210 µM
C=Cc1cn([C@@H]2O[C@H](CO)[C@@H](O)[C@@H]2F)c(=O)[nH]c1=O	-	HEL	1.1 µM
O=c1[nH]cccc1O	G	HEL	>200 µg/mL
CCCCCc1c(OC)cc(O)c2c(=O)c3ccc(O)c(OC)c3n(C)c12	-	HEF	10 µg/mL
CC#Cc1cn([C@@H]2O[C@H](COP(=O)(O)Oc3ccc(Cl)cc3)[C@@H](O)[C@@H]2O)c(=O)[nH]c1=O	SC16	VERO	100 µM
Cc1cccc2c1OP(=O)(OC[C@H]1O[C@@H](n3cc(/C=C/Br)c(=O)[nH]c3=O)C[C@@H]1OC(=O)C(C)(C)C)OC2	G (TK+)	VERO	>128 µg/mL
COc1cc2c(c3c1c(=O)c1cccc(OC)c1n3C)C=CC(C)(C)O2	-	HEF	5.5 µg/mL
CC#Cc1cn([C@@H]2O[C@H](CO)[C@@H](O)[C@@H]2O)c(=O)[nH]c1=O	SC16	VERO	>100 µM
NC(=O)c1c[nH]c2cc(-c3ccncc3)ccc2c1=O	-	VERO	>12.5 µg/mL
COc1c2c(cc3ccoc13)C(=O)[C@@]1(O)c3cc4c(cc3OC[C@H]1O2)OCO4	186	VERO	>50 µg/mL
CCC[CH2][Sn]([Cl])([CH2]CCC)[CH2]CCC	MS	HFF	<1 µg/mL
CO[C@H]1C[C@H](O[C@H]2CC[C@]3(C=O)[C@H]4CC[C@]5(C)[C@@H](C6=CC(=O)OC6)CC[C@]5(O)[C@H]4CC[C@]3(O)C2)O[C@H](C)[C@H]1O	333	GMK AH1	0.11 µM
COC(=O)c1cc(O)c(O)c(O)c1	G	HEL	2.6 µg/mL
[Br][Sn]([Br])([c]1ccccc1)[c]1ccccc1	MS	HFF	1.1 µg/mL
COC(=O)[C@H](C)NP(=O)(OC[C@H]1C/C1=C/n1cnc2c(N)nc(N)nc21)Oc1ccccc1	-	HFF	12.7 µM
O=C1c2cc3ccoc3cc2O[C@@H]2COc3cc4c(cc3[C@H]12)OCO4	186	VERO	>50 µg/mL
CC#Cc1cn([C@@H]2O[C@H](COP(=O)(O)Oc3c(C)cccc3C)[C@@H](O)[C@@H]2O)c(=O)[nH]c1=O	SC16	VERO	>10 µM
CC(=O)O[C@H]1C[C@H](O[C@H]2[C@@H](O)C[C@H](O[C@H]3[C@@H](O)C[C@H](O[C@H]4CC[C@@]5(C)[C@H](CC[C@@H]6[C@@H]5CC[C@]5(C)[C@@H](C7=CC(=O)OC7)CC[C@]65O)C4)O[C@@H]3C)O[C@@H]2C)OC(C)[C@H]1O[C@@H]1O[C@H](CO)[C@@H](O)[C@H](O)[C@H]1O	333	GMK AH1	0.24 µM
COC(=O)[C@H](C)NP(=O)(OC[C@H]1C/C1=C/n1cnc2c(=O)[nH]c(N)nc21)Oc1ccccc1	-	VERO	>100 µM
CCn1cc(C(=O)NCCN(C)C)c(=O)c2ccc(-c3ccncc3)cc21	-	VERO	>100 µg/mL
COc1cc(O)c2c(=O)c3ccc(OC)c(OC)c3n(C)c2c1	-	HEF	>20 µg/mL
CCn1cc2c(=O)n(-c3ccccc3)nc-2c2ccc(-c3ccncc3)cc21	-	VERO	>100 µg/mL
Cn1c2c(O)cccc2c(=O)c2c(O)cc3c(c21)C=CC(C)(C)O3	-	HEF	5 µg/mL
CCn1cc(C(N)=O)c(=O)c2ccc(Cl)cc21	-	VERO	>100 µg/mL
CCCCCc1c(O)c(CCCCC)c2c(c1O)c(=O)c1cccc(O)c1n2C	-	HEF	8.4 µg/mL
CC(=O)CCC(=O)O[C@H]1C[C@H](n2cc(/C=C/Br)c(=O)[nH]c2=O)O[C@@H]1COP1(=O)OCc2ccccc2O1	G (TK+)	VERO	>128 µg/mL
COc1c(O)ccc2c(=O)c3c(O)cc4c(c3n(C)c12)C=CC(C)(C)O4	-	HEF	1.3 µg/mL
Cc1cccc2c1OP(=O)(OC[C@H]1O[C@@H](n3cc(/C=C/Br)c(=O)[nH]c3=O)C[C@@H]1OC(=O)[C@@H](C)N)OC2	G (TK+)	VERO	>128 µg/mL
COc1cc(O)c2c(=O)c3cccc(O)c3n(C)c2c1OC	Aphidicolin-resistant	HEF	0.7 µg/mL
Cc1cccc2c1OP(=O)(OC[C@H]1O[C@@H](n3cc(/C=C/Br)c(=O)[nH]c3=O)C[C@@H]1OC(=O)[C@H](N)C(C)C)OC2	G (TK+)	VERO	>128 µg/mL
COC(=O)[C@H](C)NP(=O)(OC[C@H]1C/C1=C/n1cnc2c(OC)nc(N)nc21)Oc1ccccc1	-	HFF	0.88 µM
C[CH2][Sn]([Cl])([Cl])[CH2]C.c1cnc2c(c1)ccc1cccnc12	MS	HFF	9 µg/mL
Cc1cn([C@@H]2O[C@H](CO)[C@@H](O)[C@@H]2F)c(=O)[nH]c1=O	-	HEL	0.162 µM
Cc1cccc2c1OP(=O)(OC[C@H]1O[C@@H](n3cc(/C=C/Br)c(=O)[nH]c3=O)C[C@@H]1OC(=O)[C@H](N)CC(C)C)OC2	G (TK+)	VERO	>128 µg/mL
O=c1[nH]c(=O)n([C@H]2C[C@H](O)[C@@H](CO)O2)cc1I	-	HEL	4.12 µM
C[C@]12CC[C@H]3[C@@H](CC[C@]4(O)C[C@@H](O[C@@H]5O[C@@H](O)[C@H](O)[C@@H](O)[C@H]5O)CC[C@]34C=O)[C@@]1(O)CC[C@@H]2C1=CC(=O)OC1	333	GMK AH1	0.02 µM

The last 8 rows once more:

SMILES | strain or isolate | cell line | result
COc1cc(O)c2c(=O)c3cccc(O)c3n(C)c2c1OC | Aphidicolin-resistant | HEF | 0.7 µg/mL
Cc1cccc2c1OP(=O)(OC[C@H]1O[C@@H](n3cc(/C=C/Br)c(=O)[nH]c3=O)C[C@@H]1OC(=O)[C@H](N)C(C)C)OC2 | G (TK+) | VERO | >128 µg/mL
COC(=O)[C@H](C)NP(=O)(OC[C@H]1C/C1=C/n1cnc2c(OC)nc(N)nc21)Oc1ccccc1 | - | HFF | 0.88 µM
C[CH2][Sn]([Cl])([Cl])[CH2]C.c1cnc2c(c1)ccc1cccnc12 | MS | HFF | 9 µg/mL
Cc1cn([C@@H]2O[C@H](CO)[C@@H](O)[C@@H]2F)c(=O)[nH]c1=O | - | HEL | 0.162 µM
Cc1cccc2c1OP(=O)(OC[C@H]1O[C@@H](n3cc(/C=C/Br)c(=O)[nH]c3=O)C[C@@H]1OC(=O)[C@H](N)CC(C)C)OC2 | G (TK+) | VERO | >128 µg/mL
O=c1[nH]c(=O)n([C@H]2C[C@H](O)[C@@H](CO)O2)cc1I | - | HEL | 4.12 µM
C[C@]12CC[C@H]3[C@@H](CC[C@]4(O)C[C@@H](O[C@@H]5O[C@@H](O)[C@H](O)[C@@H](O)[C@H]5O)CC[C@]34C=O)[C@@]1(O)CC[C@@H]2C1=CC(=O)OC1 | 333 | GMK AH1 | 0.02 µM